Reference: PubChem BioAssay AID504761 (Drosophila RNAi Screening Center, 2011)

Screen: 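Genome-wide fly cell screen for genes dengue virus requires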 (primary screen)
Cell system: D.Mel-2 cells from Drosophila
Knock-down reagent: long dsRNA against Drosophila genes
Treatment: infection with dengue virus type 2; dose and infection time not stated
Read-out: 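Per well on two replicate plates, imaging gave the percent of cells positive for viral envelope protein, ranked by infection, and a nuclear count of cells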
Scale: infection score: higher = more virus-infected cells; cell count: higher = more cells in the well
Active means: 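Very low infection ranking in both replicate wells (chance probability at most 0.065), then a retest showing infection dropped 1.5-fold or more at p below 0.05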
Meaning of the calls: active = confirmed: knock-down lowers infection; inactive = not picked or not confirmed
The deposit covers about 22,000 reagents; this is a random part of those that have a named target and a result. In the full data, 116 (0.52%) are marked active. 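Calls depend on retest data that are not deposited; infection was ranked per plate without normalising between plates; the unit of the infection score is not given.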 Raw values vary from plate to plate and are shown uncorrected. Reagents against one gene are numbered here. The record does not give: the amount of reagent, the time to read-out.

no.	gene	reagent	infection score, replicate 1	infection score, replicate 2	cell count, replicate 1	cell count, replicate 2	Call
1	Acox57D-p (GeneID 37445)	1	2.36	4.38	6444	6376	inactive
2	srp (GeneID 41944)	1	1.05	7.66	7403	6906	inactive
3	srp (GeneID 41944)	2	10.3	11.2	4799	4564	inactive
4	CG3491 (GeneID 34870)	1	5.34	4.35	5976	6733	inactive
5	spoon (GeneID 31459)	1	1.24	4.48	6445	6467	inactive
6	spoon (GeneID 31459)	2	1.27	9.65	6374	6634	inactive
7	Hcs (GeneID 40659)	1	6.31	5.28	6579	6215	inactive
8	Hcs (GeneID 40659)	2	1.69	4.61	6980	6892	inactive
9	Zcchc7 (GeneID 39883)	1	13.5	8.62	4579	6274	inactive
10	Zcchc7 (GeneID 39883)	2	16.8	10.4	6390	5021	inactive
11	Uros2 (GeneID 41908)	1	5.69	5.18	5655	6761	inactive
12	nerfin-1 (GeneID 44786)	1	2.76	1.09	6273	6151	inactive
13	CG7384 (GeneID 34447)	1	10.5	12.5	6250	6329	inactive
14	Gld2 (GeneID 42602)	1	0.93	1.82	5929	6703	inactive
15	Gld2 (GeneID 42602)	2	15.9	9.56	5286	6927	inactive
16	Rdh (GeneID 2769007)	1	5.02	3.94	4844	4440	inactive
17	CG10384 (GeneID 37567)	1	0.96	2.35	5943	5920	inactive
18	CG10384 (GeneID 37567)	2	17.9		4252	374	inactive
19	Prosbeta5R2 (GeneID 318924)	1	0.28	0.33	6444	5989	inactive
20	Prosbeta5R2 (GeneID 318924)	2	25.4	26	6040	5861	inactive
21	Drsl1 (GeneID 326207)	1	0.66	5.78	5485	6039	inactive
22	CG15167 (GeneID 35134)	1	3.22		6055	613	inactive
23	promL (GeneID 38372)	1	7.4	3.05	7152	7090	inactive
24	Rev1 (GeneID 38079)	1	5.86	9.32	6572	6524	inactive
25	Gr28a (GeneID 117348)	1	3.5	6.63	6164	6445	inactive
26	Snap24 (GeneID 41193)	1	1.37	1.24	6285	6598	inactive
27	CG9316 (GeneID 35333)	1	6.29	4.67	6244	6559	inactive
28	Uba4 (GeneID 34187)	1	5.82	13.1	6616	6026	inactive
29	Uba4 (GeneID 34187)	2	22.9	4.25	5636	6563	inactive
30	CG4073 (GeneID 41284)	1	1.83	6	6235	6001	inactive
31	CG9240 (GeneID 32505)	1	2.94	14.1	6159	1925	inactive
32	CG15099 (GeneID 37176)	1	13.4	7.73	6585	7090	inactive
33	Eig71Ej (GeneID 39711)	1	2.08	4.45	6050	6186	inactive
34	Eig71Ej (GeneID 39711)	2	10.5	6.8	3380	2411	inactive
35	Nadk1b (GeneID 36507)	1	8.47	9.14	6231	6082	inactive
36	Nadk1b (GeneID 36507)	2	23.3	27.7	5737	5880	inactive
37	Nadk1b (GeneID 36507)	3	6.86	2.58	6401	6347	inactive
38	CAP (GeneID 36084)	1	7.99	12.7	6281	6125	inactive
39	CAP (GeneID 36084)	2	15.7	8.97	6081	6034	inactive
40	CAP (GeneID 36084)	3	8.81	5.27	6661	6129	inactive
41	CAP (GeneID 36084)	4	21.4	8.58	6150	6069	inactive
42	tup (GeneID 35147)	1	8.1	10.1	6283	6432	inactive
43	tup (GeneID 35147)	2	2.03	7.55	6765	6704	inactive
44	Duox (GeneID 33477)	1	3.79	3.49	6365	6111	inactive
45	pros (GeneID 41363)	1	3.8	5.07	5891	5172	inactive
46	pros (GeneID 41363)	2	14.7	9.74	6277	6448	inactive
47	pros (GeneID 41363)	3	7.22	6.47	6454	6380	inactive
48	CG13438 (GeneID 37348)	1	3.46	1.59	5925	6467	inactive
49	CG4596 (GeneID 41312)	1	2.15	11.1	6235	6284	inactive
50	CG4596 (GeneID 41312)	2	4.57	3.87	6066	6048	inactive
51	TyrR (GeneID 42136)	1	3.73	4.34	6079	5915	inactive
52	Prdm13 (GeneID 38713)	1	1.23	4.43	6008	6043	inactive
53	PNUTS (GeneID 33270)	1	4.73	3.33	6708	6222	inactive
54	PNUTS (GeneID 33270)	2	5.29	6.13	6499	6187	inactive
55	lin-52 (GeneID 31499)	1	3.15	2.96	5785	5887	inactive
56	Cad96Ca (GeneID 43026)	1	4.16	2.59	6421	6484	inactive
57	Cad96Ca (GeneID 43026)	2	11.7	0.73	6368	6611	inactive
58	Smr (GeneID 32225)	1	13.8	31.5	4962	3434	inactive
59	Smr (GeneID 32225)	2	1.69	0.9	5222	5663	inactive

7 entries from above, ordered by “cell count, replicate 1”, high to low.
gene	reagent	infection score, replicate 1	infection score, replicate 2	cell count, replicate 1	cell count, replicate 2	Call
nerfin-1 (GeneID 44786)	1	2.76	1.09	6273	6151	inactive
CG7384 (GeneID 34447)	1	10.5	12.5	6250	6329	inactive
CG10384 (GeneID 37567)	1	0.96	2.35	5943	5920	inactive
Gld2 (GeneID 42602)	1	0.93	1.82	5929	6703	inactive
Gld2 (GeneID 42602)	2	15.9	9.56	5286	6927	inactive
Rdh (GeneID 2769007)	1	5.02	3.94	4844	4440	inactive
CG10384 (GeneID 37567)	2	17.9		4252	374	inactive
